Results published in patent US20040067998A1, “Antifungal and/or antiparasitic pharmaceutical composition and novel indole derivatives as active principle of such a composition” (priority 2003, published 2004).
Values joined by “and” are separate entries in the source; they are usually repeats but may differ in a detail not shown here. Equal values may be shown once. Read-outs that look alike come from different tables or passages of the source.

What was measured:
Format in all cases: cell-based
[1] = tested on: Candida krusei (4 strains); test: Antifungal activity in vitro on clinical strains of Candida: krusei (4 strains)
[2] = tested on: Aspergillus fumigatus (strain n°AF 980003); test: Antifungal activity on a clinical strain of Aspergillus fumigatus (Alamar Blue microplate test); conditions: AmB: CMI = CI90
[3] = tested on: intracellular amastigote form of Leishmania mexicana; test: Anti-leishmanian activity on the amastigote form in peritoneal macrophages of BALB/c mice; conditions: infected peritoneal macrophages; 96 hours
[4] = tested on: Candida albicans (strain n° CA980001); test: Antifungal activity on a clinical strain of Candida albicans (MTT colorimetric microplate test); conditions: AmB: CMI = CI90
[5] = tested on: Candida tropicalis (1 strain); test: Antifungal activity in vitro on clinical strains of Candida: tropicalis (1 strain); conditions: strain CT980002 (Candida tropicalis)
[6] = tested on: Candida albicans (4 strains); test: Antifungal activity in vitro on clinical strains of Candida: albicans (4 strains)
[7] = tested on: promastigote stage of Leishmania mexicana; test: Antiparasitic activity on the promastigote form of Leishmania (MTT)
[8] = tested on: Candida lusitaniae (1 strain); test: Antifungal activity in vitro on clinical strains of Candida: lusitaniae (1 strain); conditions: strain CL980001 (Candida lusitaniae)
[9] = tested on: Candida parapsilosis (2 strains); test: Antifungal activity in vitro on clinical strains of Candida: parapsilosis (2 strains)

For amphotericin B, the “CI80 on clinical strains of Candida” value ([1]; strain CK980001 (Candida krusei)) was 70 ± 10 nM, the “CI80 on clinical strains of Candida” value ([1]; strain CK980002 (Candida krusei)) was 150 ± 80 nM and the “CI80 on clinical strains of Candida” value ([1]; strain CK980003 (Candida krusei)) was 860 ± 0 nM. The “CI80 on clinical strains of Candida” value ([1]; strain CK980004 (Candida krusei)) was 840 ± 0 nM, the “CMI = CI90 Aspergillus fumigatus (AF980003)” value [2] was 0.15 μM and 0.14 μg/ml and the “IC50 on the amastigote stage of Leishmania mexicana” value [3] was 0.47 µg/mL. For the same substance, the “CMI = CI90 Candida albicans (CA980001)” value [4] was 0.12 μM and 0.12 μg/ml, the “CI80 on clinical strains of Candida” value [5] was 80 ± 0 nM and the “CI80 on clinical strains of Candida” value ([6]; strain CA980001 (Candida albicans)) was 80 ± 1 nM. For the same substance, the “CI80 on clinical strains of Candida” value ([6]; strain CA980002 (Candida albicans)) was 70 ± 1 nM, the “CI80 on clinical strains of Candida” value ([6]; strain CA980003 (Candida albicans)) was 80 ± 2 nM and the “CI80 on clinical strains of Candida” value ([6]; strain CA980005 (Candida albicans)) was 80 ± 2 nM. For the same substance, the “CI50 Leishmania mexicana Promastigotes” value [7] was 0.029 ± 0.03 µg/mL, the “CI50 Leishmania mexicana Promastigotes” value ([7]; 36 h at 26° C., MTT) was 0.029 ± 0.03 µg/mL and the “CI50 Leishmania mexicana Promastigotes” value ([7]; 36 h at 26° C., MTT, listed as amphot ricin B) was 0.029 µg/mL. For the same substance, the IC50 ([7]; read-out: CI50 Leishmania mexicana Promastigotes) was 26 nM, the IC50 ([7]; read-out: CI50 Leishmania mexicana Promastigotes, 36 h at 26° C., MTT) was 26 nM and the “CI80 on clinical strains of Candida” value [8] was 630 ± 10 nM. For the same substance, the “CI80 on clinical strains of Candida” value ([9]; strain CP980001 (Candida parapsilosis)) was >1000 nM and the “CI80 on clinical strains of Candida” value ([9]; strain CP980002 (Candida parapsilosis)) was 810 ± 10 nM.
